PubChem BioAssay AID504761 | Drosophila RNAi Screening Center, 2011
In all, the deposit lists about 22,000 reagents; shown is a random part of those that have a named target and a result. In the full data, 116 (0.52%) are marked active. 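Calls depend on retest data that are not deposited; infection was ranked per plate without normalising between plates; the unit of the infection score is not given.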 The raw values are shown without normalisation. Entries without a mark were called inactive. Names joined by + are all predicted targets of the reagent. Further read-outs or replicates are left out here. The record does not give: the amount of reagent, the time to read-out.

Assay: 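Genome-wide fly cell screen for genes dengue virus requires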 (primary screen)
Cell system: D.Mel-2 cells from Drosophila
Reagents: long dsRNA against Drosophila genes
Conditions: infection with dengue virus type 2; dose and infection time not stated
Measured: 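Cells stained for dengue envelope protein and imaged; percent of infected cells per well on duplicate plates, ranked by infection, with stained nuclei counted for cell number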
Reading the numbers: infection score: higher = more virus-infected cells; cell count: higher = more cells in the well
Rule for the call: 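Low infection ranks in the two replicates (chance level up to 0.065) followed by a retest with a 1.5-fold or larger significant decrease, p below 0.05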
Meaning of the calls: active = confirmed: knock-down lowers infection; inactive = not picked or not confirmed

gene knocked down | dsRNA | infection score, replicate 1 | infection score, replicate 2 | cell count, replicate 1
CG6689 | DRSC16095 | 23.6 | 13.3 | 5237
CG6689 | DRSC28313 | 10.9 | 8.44 | 4605
Npc2g (Niemann-Pick type C-2g) | DRSC14296 | 4.08 | 6.5 | 6080
CG3253 | DRSC04350 | 4.88 | 5.34 | 6472
CG3253 | DRSC29358 | 17.4 | 10.7 | 5034
CG14762 | DRSC05073 | 0.41 | 0.79 | 6148
CG14762 | DRSC06496 | 14 | 19.3 | 5955
CG31910 + snoRNA:Me28S-G2743 (retired record) | DRSC00946 | 3.32 | 1.01 | 6110
CG15429 | DRSC00444 | 3.55 | 10.1 | 6283
CG15429 | DRSC26501 | 2.64 | 3.71 | 5919
CG30412 | DRSC04564 | 11.8 | 26.8 | 6378
CG30412 | DRSC25522 | 2.22 | 1.8 | 6726
CG13075 | DRSC09958 | 1.84 | 3.09 | 6141
CG13075 | DRSC28458 | 6.99 | 8.27 | 4466
CG31287 | DRSC13138 | 2.25 | 0.36 | 5903

Next part (3 carried over from the part before).
gene knocked down | dsRNA | infection score, replicate 1 | infection score, replicate 2 | cell count, replicate 1
CG13075 | DRSC09958 | 1.84 | 3.09 | 6141
CG13075 | DRSC28458 | 6.99 | 8.27 | 4466
CG31287 | DRSC13138 | 2.25 | 0.36 | 5903
CG7655 | DRSC16275 | 8.6 | 6.97 | 6592
CG5783 | DRSC02894 | 14.5 | 4.15 | 5597
CG30049 | DRSC21345 | 7.88 | 5.92 | 5872
CG30049 | DRSC26709 | 2.03 | 9.25 | 6243
PGRP-LC (Peptidoglycan recognition protein LC) | DRSC08980 | 2.34 | 2.6 | 6023
PGRP-LC (Peptidoglycan recognition protein LC) | DRSC10416 | 1.23 | 1.93 | 5866
PGRP-LC (Peptidoglycan recognition protein LC) | DRSC10417 | 1.96 | 2.34 | 5654
PGRP-LC (Peptidoglycan recognition protein LC) | DRSC28556 | 11.2 | 6.7 | 5264
